Reference: US6660255B1, “Inhibition of gene transcription by polyamide DNA-binding ligands” (California Institute of Technology, priority 1997, dated 2003)
Construct, isoform or probe ends are uncertain for at least one entry.

The chains behind the UniProt entries cited, without tags or fusion partners.
UniProt P20226, whole entry: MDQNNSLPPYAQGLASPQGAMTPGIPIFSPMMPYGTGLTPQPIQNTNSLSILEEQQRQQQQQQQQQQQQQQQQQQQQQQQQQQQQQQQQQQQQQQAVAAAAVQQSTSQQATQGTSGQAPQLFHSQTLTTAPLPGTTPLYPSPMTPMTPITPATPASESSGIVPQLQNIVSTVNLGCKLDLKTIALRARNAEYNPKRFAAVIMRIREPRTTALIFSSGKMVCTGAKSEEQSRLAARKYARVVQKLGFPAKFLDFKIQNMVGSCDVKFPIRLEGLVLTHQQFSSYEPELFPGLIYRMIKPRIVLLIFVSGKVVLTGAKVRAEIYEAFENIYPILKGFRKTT

Target: TBP (rhTBP) (Homo sapiens) (UniProt P20226)
Experiment: binding assay
Conditions: TBP binding inhibited by polyamide CMV-1; method not stated; purified recombinant protein; protein details: Promega

Sequence: AGGTCTATAA (double strand) [CMV MIEP TATA region]
- binding result: binds
